Results of unrelated studies side by side (data: NIAID ChemDB).

All rows: enzyme or target tests; organism: Hepatitis C virus; target: NS3/NS4A protease; measure: IC50

Blank or dashed fields: not listed here.

| smiles | strain or isolate | result |
|---|---|---|
| C=CC1CC1(NC(=O)[C@@H]1C[C@@H](Oc2cc(-c3ccccc3)nc3cc(OC)ccc23)CN1C(=O)[C@@H](NC(=O)OC(C)(C)C)C(C)C)C(=O)NS(C)(=O)=O | BMS | <0.5 µM |
| C#CC[C@@H](C=O)C(=O)[C@H](CCC(=O)O)NC(=O)[C@@H](CCC(=O)O)NC(=O)[C@H](Cc1cccc(C)c1)NC(=O)[C@H](CCC(=O)O)NC(=O)[C@H](CC(=O)O)NC(=O)CCC(=O)O | - | 22 µM |
| C=C[C@@H]1C[C@]1(NC(=O)[C@@H]1C[C@@H](Oc2cc(-c3ccccc3)nc3cc(OC)ccc23)CN1C(=O)[C@@H](NC(=O)OC(C)(C)C)[C@@H](C)CC)C(=O)NS(=O)(=O)C1CC1 | BMS | <0.5 µM |
| Cc1ccccc1C[C@H](NC(=O)[C@H](CCC(=O)O)NC(=O)[C@H](CC(=O)O)NC(=O)CCC(=O)O)C(=O)N[C@H](C(=O)N[C@@H](CC(C)C)C(=O)N[C@H](C=O)CSCc1ccccc1)C(C)(C)C | - | 0.3 µM |
| C=CC1CC1(NC(=O)[C@@H]1C[C@@H](OC(=O)NCc2cccc(F)c2)CN1C(=O)[C@@H](NC(=O)OC(C)(C)C)C(C)(C)C)C(=O)NS(=O)(=O)C1CC1 | BMS/H77C/J416S | 0.1–1 µM |
| CSCC[C@H](NC(=O)[C@H](CCC(=O)O)NC(=O)[C@H](CC(=O)O)NC(=O)CCC(=O)O)C(=O)N[C@@H](CCC(=O)O)C(=O)N[C@@H](CCC(=O)O)C(=O)[C@H](C=O)CC(F)(F)F | - | 20 µM |
| C=CCCCCCCCCC1(S(=O)(=O)NC(=O)[C@]2(NC(=O)[C@@H]3C[C@@H](Oc4cc(-c5ccccc5)nc5cc(OC)ccc45)CN3C(=O)[C@@H](NC(=O)OC(C)(C)C)C(C)(C)C)C[C@@H]2C=C)CC1 | BMS | <0.05 µM |
| C=C[C@@H]1C[C@]1(NC(=O)[C@@H]1C[C@@H](Oc2cc(-c3ccccc3)nc3cc(OC)ccc23)CN1C(=O)[C@@H](NC(=O)OC(C)(C)C)C(C)(C)C)C(=O)NS(=O)(=O)c1ccc(C#N)cc1 | BMS | <0.05 µM |
| C=CC1CC1(NC(=O)[C@@H]1C[C@@H](OC(=O)NC2CCCCC2)CN1C(=O)[C@@H](NC(=O)OC(C)(C)C)C(C)(C)C)C(=O)NS(=O)(=O)C1CC1 | BMS/H77C/J416S | <0.1 µM |
| C=C1C[C@]1(NC(=O)[C@@H]1C[C@@H](Oc2cc(-c3ccccc3)nc3cc(OC)ccc23)CN1C(=O)[C@@H](NC(=O)OC(C)(C)C)C(C)(C)C)C(=O)NS(=O)(=O)c1cc(F)ccc1C | BMS | <0.05 µM |
| COc1ccc2c(O[C@@H]3C[C@@H](C(=O)NC4(C(=O)NS(=O)(=O)C5(Nc6ccccc6)CC5)CC4)N(C(=O)[C@@H](NC(=O)OC(C)(C)C)C(C)(C)C)C3)cc(-c3ccccc3)nc2c1 | BMS | 0.5–5 µM |
| C=CC1CC1(NC(=O)[C@@H]1C[C@@H](OC(=O)N[C@H](C(=O)OC)[C@@H](C)CC)CN1C(=O)[C@@H](NC(=O)OC(C)(C)C)C(C)(C)C)C(=O)O | BMS/H77C/J416S | 1–10 µM |
| C=CC1C[C@@]1(NC(=O)[C@@H]1C[C@@H](Oc2cc(-c3ccccc3)nc3cc(OC)ccc23)CN1C(=O)[C@@H](NC(=O)Oc1ccc(C)cc1)C(C)(C)C)C(=O)NS(=O)(=O)C1(Cc2ccccc2)CC1 | BMS | 0.05–0.5 µM |
| C=C[C@@H]1C[C@]1(NC(=O)[C@@H]1C[C@@H](Oc2cc(-c3ccccc3)nc3cc(OC)ccc23)CN1C(=O)[C@@H](NC(=O)OC(C)(C)C)C(C)(C)C)C(=O)NS(=O)(=O)c1ccccc1Cl | BMS | <0.05 µM |
| C=CC1CC1(NC(=O)[C@@H]1C[C@@H](OC(=O)Nc2cccc(OC)c2)CN1C(=O)[C@@H](NC(=O)OC(C)(C)C)C(C)(C)C)C(=O)NS(=O)(=O)C1CC1 | BMS/H77C/J416S | <0.1 µM |
| COc1ccc2c(O[C@@H]3C[C@@H](C(=O)N[C@@]4(C(=O)NS(=O)(=O)C5(Cc6ccccc6)CC5)CC45CC5)N(C(=O)[C@@H](NC(=O)OC(C)(C)C)C(C)(C)C)C3)cc(-c3ccccc3)nc2c1 | BMS | 0.5–5 µM |
| C=C[C@@H]1C[C@]1(NC(=O)[C@@H]1C[C@@H](Oc2cc(-c3ccccc3)nc3cc(OC)ccc23)CN1C(=O)[C@@H](NC(=O)OC(C)(C)C)C(C)(C)C)C(=O)NS(=O)(=O)c1ccccc1C(F)(F)F | BMS | <0.05 µM |
| C=CC1C[C@@]1(NC(=O)[C@@H]1C[C@@H](Oc2cc(-c3ccccc3)nc3cc(OC)ccc23)CN1C(=O)[C@@H](NC(=O)Oc1ccc(F)cc1)C(C)(C)C)C(=O)NS(=O)(=O)C1(Cc2ccccc2)CC1 | BMS | 0.05–0.5 µM |
| C=CC1CC1(NC(=O)[C@@H]1C[C@@H](OC(=O)N[C@H](C)c2cccc3ccccc23)CN1C(=O)[C@@H](NC(=O)OC(C)(C)C)C(C)(C)C)C(=O)O | BMS/H77C/J416S | >10 µM |
| C=CC1CC1(NC(=O)[C@@H]1C[C@@H](Oc2cc(-c3ccccc3)nc3cc(OC)ccc23)CN1C(=O)[C@@H](NC(=O)OC(C)(C)C)C(C)(C)C)C(=O)NS(=O)(=O)C1(C(=O)Nc2ccccc2)CC1 | BMS | <0.05 µM |
| C=CC[C@@H](C=O)C(=O)[C@H](CCC(=O)O)NC(=O)[C@H](CCC(=O)O)NC(=O)[C@H](CCSC)NC(=O)[C@H](CCC(=O)O)NC(=O)[C@H](CC(=O)O)NC(=O)CCC(=O)O | - | 22 µM |
| C=C[C@H]1C[C@@]1(NC(=O)[C@@H]1C[C@@H](Oc2cc(-c3ccccc3)nc3cc(OC)ccc23)CN1C(=O)[C@@H](NC(=O)OC(C)(C)C)C(C)(C)C)C(=O)NS(=O)(=O)C1(CCC)CC1 | BMS | <0.05 µM |
| CCOC(=O)N[C@H](C(=O)N1C[C@H](Oc2cc(-c3ccccc3)nc3cc(OC)ccc23)C[C@H]1C(=O)N[C@]1(C(=O)NS(=O)(=O)C2CC2)C[C@H]1CC)C(C)C | BMS | <0.05 µM |

The last 3 rows once more:

smiles	strain or isolate	result
C=CC[C@@H](C=O)C(=O)[C@H](CCC(=O)O)NC(=O)[C@H](CCC(=O)O)NC(=O)[C@H](CCSC)NC(=O)[C@H](CCC(=O)O)NC(=O)[C@H](CC(=O)O)NC(=O)CCC(=O)O	-	22 µM
C=C[C@H]1C[C@@]1(NC(=O)[C@@H]1C[C@@H](Oc2cc(-c3ccccc3)nc3cc(OC)ccc23)CN1C(=O)[C@@H](NC(=O)OC(C)(C)C)C(C)(C)C)C(=O)NS(=O)(=O)C1(CCC)CC1	BMS	<0.05 µM
CCOC(=O)N[C@H](C(=O)N1C[C@H](Oc2cc(-c3ccccc3)nc3cc(OC)ccc23)C[C@H]1C(=O)N[C@]1(C(=O)NS(=O)(=O)C2CC2)C[C@H]1CC)C(C)C	BMS	<0.05 µM

a–b is a range or a potency band. ICn: concentration for n% inhibition. Lines come from different laboratories, so protocols vary.